{"source": "PubChem BioAssay AID1259414 (Drosophila RNAi Screening Center, 2018)", "purpose": "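Host factors increasing or decreasing Wolbachia levels in cultured fly cells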 (primary screen)", "system": "Drosophila JW18 cells infected with Wolbachia", "reagent": "long dsRNA against Drosophila genes, 0.25 µg dsRNA per well of a 384-well plate", "time to read-out": "5 days", "treatment": "cells persistently infected with Wolbachia before knock-down; no added drug", "detection": "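Automated imaging of bacterial rRNA staining divided by host cell count, reported as plate-normalised robust z-score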", "reading the numbers": "Wolbachia per cell robust z: higher = more Wolbachia per host cell than the plate typical", "hit rule": "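Active if absolute robust z reaches 1.5 in two or more of three replicates, leaving out multi- or no-target dsRNAs, genes unexpressed in JW18 and A1 wells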", "note": "The screen tested about 24,000 reagents; shown is a random part of those that have a named target and a result. In the full data, about 1,210 (5%) were called active. 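Inactive calls also include excluded dsRNAs with several or no targets, genes unexpressed in JW18, and well A1, regardless of score.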 A number with no mark means an inactive call. The numbers tell different reagents against one gene apart. Names joined by + are all predicted targets of the reagent. No sequences are given here."}
{"gene knocked down": "Glos + Gem4b + Gem4c", "dsRNA no.": 1, "Wolbachia per cell robust z, rep 1": 0.869, "Wolbachia per cell robust z, rep 2": 0.246, "Wolbachia per cell robust z, rep 3": 0.881}
{"gene knocked down": "Drsl6 (Drosomycin-like 6)", "dsRNA no.": 1, "Wolbachia per cell robust z, rep 1": -0.24, "Wolbachia per cell robust z, rep 2": 0.39, "Wolbachia per cell robust z, rep 3": -0.833}
{"gene knocked down": "Hsp27 (Heat shock protein 27)", "dsRNA no.": 1, "Wolbachia per cell robust z, rep 1": "-2.46 (active)", "Wolbachia per cell robust z, rep 2": 0.702, "Wolbachia per cell robust z, rep 3": -2.63}
{"gene knocked down": "Hsp27 (Heat shock protein 27)", "dsRNA no.": 2, "Wolbachia per cell robust z, rep 1": "-1.58 (active)", "Wolbachia per cell robust z, rep 2": -1.1, "Wolbachia per cell robust z, rep 3": -2.97}
{"gene knocked down": "Pkn + Tsen15", "dsRNA no.": 1, "Wolbachia per cell robust z, rep 1": 0.508, "Wolbachia per cell robust z, rep 2": -0.202, "Wolbachia per cell robust z, rep 3": 0.129}
{"gene knocked down": "Pkn + Tsen15", "dsRNA no.": 2, "Wolbachia per cell robust z, rep 1": 1.15, "Wolbachia per cell robust z, rep 2": 0.2, "Wolbachia per cell robust z, rep 3": -0.037}
{"gene knocked down": "Twdlalpha (Tweedlealpha)", "dsRNA no.": 1, "Wolbachia per cell robust z, rep 1": -0.177, "Wolbachia per cell robust z, rep 2": -1.29, "Wolbachia per cell robust z, rep 3": -3.36}
{"gene knocked down": "Twdlalpha (Tweedlealpha)", "dsRNA no.": 2, "Wolbachia per cell robust z, rep 1": -1.76, "Wolbachia per cell robust z, rep 2": -2.27, "Wolbachia per cell robust z, rep 3": -1.29}
{"gene knocked down": "CG14020", "dsRNA no.": 1, "Wolbachia per cell robust z, rep 1": 0.156, "Wolbachia per cell robust z, rep 2": 1.06, "Wolbachia per cell robust z, rep 3": 0.334}
{"gene knocked down": "CG10638", "dsRNA no.": 1, "Wolbachia per cell robust z, rep 1": 0.0565, "Wolbachia per cell robust z, rep 2": -7.02, "Wolbachia per cell robust z, rep 3": -0.722}
{"gene knocked down": "CG10638", "dsRNA no.": 2, "Wolbachia per cell robust z, rep 1": -1.32, "Wolbachia per cell robust z, rep 2": -1.02, "Wolbachia per cell robust z, rep 3": 0.289}
{"gene knocked down": "CG2186", "dsRNA no.": 1, "Wolbachia per cell robust z, rep 1": 0.455, "Wolbachia per cell robust z, rep 2": 0.0873, "Wolbachia per cell robust z, rep 3": 0.0515}
{"gene knocked down": "CG2186", "dsRNA no.": 2, "Wolbachia per cell robust z, rep 1": 0.804, "Wolbachia per cell robust z, rep 2": 0.709, "Wolbachia per cell robust z, rep 3": -0.153}
{"gene knocked down": "lin-28", "dsRNA no.": 1, "Wolbachia per cell robust z, rep 1": 0.574, "Wolbachia per cell robust z, rep 2": -3.2, "Wolbachia per cell robust z, rep 3": -0.325}
{"gene knocked down": "GstS1 (Glutathione S transferase S1)", "dsRNA no.": 1, "Wolbachia per cell robust z, rep 1": 0.311, "Wolbachia per cell robust z, rep 2": -0.632, "Wolbachia per cell robust z, rep 3": 0.288}
{"gene knocked down": "GstS1 (Glutathione S transferase S1)", "dsRNA no.": 2, "Wolbachia per cell robust z, rep 1": -0.946, "Wolbachia per cell robust z, rep 2": 0.703, "Wolbachia per cell robust z, rep 3": 0.287}

Ordered by “Wolbachia per cell robust z, rep 3” (high to low): 2 of the entries above.
{"gene knocked down": "Drsl6 (Drosomycin-like 6)", "dsRNA no.": 1, "Wolbachia per cell robust z, rep 1": -0.24, "Wolbachia per cell robust z, rep 2": 0.39, "Wolbachia per cell robust z, rep 3": -0.833}
{"gene knocked down": "Hsp27 (Heat shock protein 27)", "dsRNA no.": 1, "Wolbachia per cell robust z, rep 1": "-2.46 (active)", "Wolbachia per cell robust z, rep 2": 0.702, "Wolbachia per cell robust z, rep 3": -2.63}
